Compound potency records, mixed from different reports. Data source: NIAID ChemDB in PubChem.

Common to all: growth or infection tests; organism: HIV-1; method: cytopathic effect / XTT; endpoint: fold resistance

Fold resistance: result on the changed form divided by that on wild type.

| compound | mutations | strain | cell line | result |
|---|---|---|---|---|
| Cc1ccnc2c1NC(=O)c1cccnc1N2C1CC1 | RT-Y181C | UC38-R(RT-Y181C | CEM + CEM-SS | 460 |
| O=C1N(Cc2ccc(CO)cc2)[C@H](COc2ccccc2)[C@H](O)[C@@H](O)[C@@H](COc2ccccc2)N1Cc1ccc(CO)cc1 | PR-G48V L90M | IIIB | MT-4 | 0.186 |
| CC(C)=CCN1Cc2cccc3[nH]c(=S)n(c23)C[C@@H]1C | RT-A98G V108I | IIIB(TIBO-R(I)) | CEM + CEM-SS | >1000 |
| Fc1cccc(F)c1[C@H]1SCc2nc3ccccc3n21 | RT-K103N | IIIB | CEM | ≥11.1 |
| O=[N+]([O-])c1ccccc1S(=O)(=O)c1ccccc1 | RT-A98G V108I | IIIB(TIBO-R(I)) | CEM + CEM-SS | >60 |
| Fc1cccc(F)c1[C@@H]1SCc2nc3ccccc3n21 | RT-D138K | IIIB | CEM | 2.06 |
| Cc1cn([C@H]2C[C@H](N=[N+]=[N-])[C@@H](CO)O2)c(=O)[nH]c1=O | RT-Y181C | T3-16(RT-Y181C) | MT-4 | 0.6 |
| CCCc1cc(=O)oc2c3c(c4c(c12)OC(C)(C)C=C4)O[C@H](C)[C@@H](C)[C@@H]3O | RT-Y181C | UC38-R(RT-Y181C | CEM + CEM-SS | 0.1 |
| O=c1[nH]cnc2c1ncn2[C@H]1CC[C@@H](CO)O1 | RT-L100I | 118(RT-L100I) | MT-4 | 0.802 |
| Nc1nc2c(ncn2[C@H]2CO[C@@H](CO)O2)c(=O)[nH]1 | RT-K65R Q151M | - | MT-2 | 20.5 |
| CCc1c(Sc2ccccn2)n(COCc2ccccc2)c(=O)[nH]c1=O | RT-L74V | NL4-3 | CEM + CEM-SS | 1 |
| CCc1c(C(=O)c2cc(C)cc(C)c2)n(CC2CC=CC2)c(=O)[nH]c1=O | RT-D67N K70R Y181C T215Y K219Q | 4XAZT/Y181C (RT D67N K70R Y181C T215Y K219Q) | CEM + CEM-SS | 0.15 |
| O=S1(c2ccccc2)=NC(=S)Nc2ccccc21 | RT-V90I T139I P225S | IIIB(CALO-R(II)) | CEM + CEM-SS | 1.9 |
| Nc1nc(N)c2ncn([C@H]3CO[C@@H](CO)O3)c2n1 | RT-L74V | - | MT-2 | 4 |
| CC(C)=CCN1Cc2cccc3[nH]c(=S)n(c23)C[C@@H]1C | RT-Y181C | RF | CEM + CEM-SS | >3330 |
| Cc1c(Sc2ccccc2)n(COCCO)c(=O)[nH]c1=O | RT-Y181C | UC38-R(RT-Y181C | CEM + CEM-SS | 57 |
| CC1=C(C(=O)Nc2ccc(Cl)c(C(=O)OC(C)C)c2)SCCO1 | RT-K103N Y181C | IIIB(A17(III)) | CEM + CEM-SS | >333 |
| Nc1nc(=O)n([C@@H]2CS[C@H](CO)O2)cc1F | RT-K65R M184V | Site-directed mutant | MT-2 | >210 |
| Cc1cn([C@H]2C[C@H](N=[N+]=[N-])[C@@H](CO)O2)c(=O)[nH]c1=O | RT-V108I | IIIB | CEM + CEM-SS | 0.8 |
| CC(C)=CCN1Cc2cccc3[nH]c(=S)n(c23)C[C@@H]1C | RT-Y181C | UC38-R(RT-Y181C | CEM + CEM-SS | 1.8 |
| Cc1ccnc2c1NC(=O)c1cccnc1N2C1CC1 | RT-L74V | NL4-3 | CEM + CEM-SS | 1 |
| Cc1occc1C(=S)Nc1ccc(Cl)c(/C=N/OC(C)(C)C)c1 | RT-K103N | UC10/costatolide-resistant (RT K103N) | CEM + CEM-SS | 36.5 |
| Cc1ccnc2c1NC(=O)c1cccnc1N2C1CC1 | RT-A98G V108I | TIBO R82150-resistant (RT A98G V108I) | CEM + CEM-SS | 60 |
| Fc1cccc(F)c1C1SCc2nc3ccccc3n21 | RT-Y181C | IIIB | CEM | 9.98 |

3 of the rows above, restated:

| compound | mutations | strain | cell line | result |
|---|---|---|---|---|
| Cc1ccnc2c1NC(=O)c1cccnc1N2C1CC1 | RT-L74V | NL4-3 | CEM + CEM-SS | 1 |
| Fc1cccc(F)c1[C@@H]1SCc2nc3ccccc3n21 | RT-D138K | IIIB | CEM | 2.06 |
| CCc1c(C(=O)c2cc(C)cc(C)c2)n(CC2CC=CC2)c(=O)[nH]c1=O | RT-D67N K70R Y181C T215Y K219Q | 4XAZT/Y181C (RT D67N K70R Y181C T215Y K219Q) | CEM + CEM-SS | 0.15 |

Conditions beyond the fields shown may differ between rows. Blank or dashed fields: not listed here.